Protein sequences, listed by entry. Tags and fused reporters are not part of them. Lines headed by an entry give the natural chain unless they say otherwise; changes in a name come on top.
UniProt P37967: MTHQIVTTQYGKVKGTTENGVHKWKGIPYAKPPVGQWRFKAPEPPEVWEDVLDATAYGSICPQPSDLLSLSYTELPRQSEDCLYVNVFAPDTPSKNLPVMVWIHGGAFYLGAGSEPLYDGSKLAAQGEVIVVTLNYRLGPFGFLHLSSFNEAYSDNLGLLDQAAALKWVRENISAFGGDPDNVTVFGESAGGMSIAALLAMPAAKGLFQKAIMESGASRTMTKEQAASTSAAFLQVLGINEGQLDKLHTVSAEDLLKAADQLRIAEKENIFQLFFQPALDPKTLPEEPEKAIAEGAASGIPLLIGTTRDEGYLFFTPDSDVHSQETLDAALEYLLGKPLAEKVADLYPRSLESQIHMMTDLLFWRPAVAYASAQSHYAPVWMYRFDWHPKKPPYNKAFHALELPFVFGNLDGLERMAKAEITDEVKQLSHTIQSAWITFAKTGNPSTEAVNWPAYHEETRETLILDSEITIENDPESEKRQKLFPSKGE

According to PMC4100338 (Frontiers in Chemistry, 2014):

Biological target: pNBE (Bacillus subtilis, UniProt P37967)
Assay: biochemical

In the case of `CCOP(=O)(OCC)Oc1ccc([N+](=O)[O-])cc1` [paraoxon, diethyl p-nitrophenylphosphate], the IC50 (IC50 (upper limit)) is reported as ≤ 0.5 nM and the IC50 (observed IC50) is reported as 0.37 nM.
